Measured values taken from patent US7309708B2, “Hepatitis C virus inhibitors” (priority 2003, dated 2007).

Sequences of proteins named here, by UniProt entry; tags and fusion partners are left off. Residues count along the entry.
UniProt P27958, 1027-1657 limits assumed: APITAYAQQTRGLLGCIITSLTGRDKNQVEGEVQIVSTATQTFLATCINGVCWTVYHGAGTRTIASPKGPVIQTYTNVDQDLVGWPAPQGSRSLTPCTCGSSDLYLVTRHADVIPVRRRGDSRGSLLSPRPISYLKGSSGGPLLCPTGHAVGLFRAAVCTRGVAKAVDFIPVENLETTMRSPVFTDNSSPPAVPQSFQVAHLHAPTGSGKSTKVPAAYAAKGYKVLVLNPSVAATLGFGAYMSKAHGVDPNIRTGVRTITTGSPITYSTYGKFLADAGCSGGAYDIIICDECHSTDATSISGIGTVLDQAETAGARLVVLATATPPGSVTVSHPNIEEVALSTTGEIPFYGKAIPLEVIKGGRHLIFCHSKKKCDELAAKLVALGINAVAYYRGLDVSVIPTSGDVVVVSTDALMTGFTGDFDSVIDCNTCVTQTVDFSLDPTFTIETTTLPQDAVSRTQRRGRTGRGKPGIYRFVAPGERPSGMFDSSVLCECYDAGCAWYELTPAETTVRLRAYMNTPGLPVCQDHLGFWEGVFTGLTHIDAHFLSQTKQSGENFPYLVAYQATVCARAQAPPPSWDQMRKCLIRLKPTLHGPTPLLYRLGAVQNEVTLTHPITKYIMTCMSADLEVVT

Legend:
[1] = biological target: HCV NS3/4A protease complex (BMS strain) (UniProt P27958); test: Recombinant HCV NS3/4A protease complex FRET peptide assay (BMS strain); assay type: biochemical, Hepatitis C virus (genotype 1a; conditions: read-out: IC50 (uuM); NS3/4A BMS strain; activity range class
[2] = system: HCV replicon (strain 1b) in Huh7 cells; conditions: Huh7 cells expressing HCV replicon, 4 days; activity range class

C=C[C@@H]1C[C@]1(NC(=O)[C@@H]1C[C@@H](Oc2nccc3cc(OC)ccc23)CN1C(=O)[C@@H](NC(=O)OC(C)(C)C)C(C)(C)C)C(=O)NS(=O)(=O)c1sc2cc(Cl)ccc2c1C
IC50 [1]: 1000 to 10000 nM

C=C[C@@H]1C[C@]1(NC(=O)[C@@H]1C[C@@H](Oc2nccc3cc(OC)ccc23)CN1C(=O)[C@@H](NC(=O)OC(C)(C)C)C(C)(C)C)C(=O)NS(=O)(=O)c1ccc(OC)cc1
IC50 [1]: < 100 nM | EC50 [2]: 100 to 1000 nM

C=C[C@@H]1C[C@]1(NC(=O)[C@@H]1C[C@@H](Oc2nccc3cc(OC)ccc23)CN1C(=O)[C@@H](NC(=O)OC(C)(C)C)C(C)(C)C)C(=O)NS(=O)(=O)c1ccc(C)cn1
IC50 [1]: 100 to 1000 nM | EC50 [2]: 1000 to 10000 nM
